Measurements taken from paper PMC9376891 (Nature Communications, 2022).

Target: T1, Rae1(31-368)-Nup98(157-213) heterodimer (human, UniProt P78406 31-368; P52948 157-213)
T1 construct: also called Rae1-Nup98; Rae1-Nup98 complex
Test: ITC
Settings: both partners purified

B1: MHV68-ORF10-CTT (peptide)
peptide: RAITDGGESPMEWQTL
notes: source: synthetic peptide
With B1 the “stoichiometry N” value was 1.37.
